Measured values from several laboratories, pooled; numbers as filed in NIAID ChemDB.

All rows: whole-cell or culture tests; agent: Mycobacterium avium complex; measure: MIC90

MIC50, MIC90 and the like: level of inhibition, or share of isolates inhibited. Blank or dashed fields: not listed here. Neighbouring rows are from separate reports.

compound,strain or isolate,result
CC[C@H]1OC(=O)[C@H](C)C(=O)[C@H](C)[C@@H](O[C@@H]2O[C@H](C)C[C@H](N(C)C)[C@H]2O)[C@](C)(OC)C[C@@H](C)C(=O)[C@H](C)[C@H]2N(NCCCc3ccnc4ccccc34)C(=O)O[C@]12C,24 strains (HIV+),27 µg/mL
NC[C@@H]1O[C@H](O[C@H]2[C@@H](O)[C@H](O[C@@H]3[C@@H](O)[C@H](N)C[C@H](N)[C@H]3O[C@H]3O[C@H](CN)[C@@H](O)[C@H](O)[C@H]3N)O[C@@H]2CO)[C@H](N)[C@@H](O)[C@@H]1O,25 isolates,>64 µg/mL
COc1cccc2c1nc1cccc(OC)c1[n+]2[O-],5 strains,32 µg/mL
CC[C@H]1OC(=O)[C@H](C)[C@@H](O[C@H]2C[C@@](C)(OC)[C@@H](O)[C@H](C)O2)[C@H](C)[C@@H](O[C@@H]2O[C@H](C)C[C@H](N(C)C)[C@H]2O)[C@](C)(OC)C[C@@H](C)C(=O)[C@H](C)[C@@H](O)[C@]1(C)O,20 strains,16 µg/mL
CN[C@@H]1[C@H](O[C@H]2[C@H](O[C@H]3[C@H](O)[C@@H](O)[C@H](N=C(N)N)[C@@H](O)[C@@H]3N=C(N)N)O[C@@H](C)[C@]2(O)C=O)O[C@@H](CO)[C@H](O)[C@H]1O,25 isolates,64 µg/mL
C[C@H]1C[C@H](N)CN1c1cc2c(cc1F)c(=O)c(C(=O)O)cn2-c1ccc(F)cc1F,25 isolates,>8 µg/mL
COc1c(N2CCNC(C)C2)c(F)cc2c(=O)c(C(=O)O)cn(C3CC3)c12,53 strains,6.25 µg/mL
CC[C@H]1OC(=O)C[C@@H](O)[C@H](C)[C@@H](O[C@@H]2O[C@H](C)[C@H](O[C@H]3C[C@@](C)(O)[C@@H](O)[C@H](C)O3)[C@H](N(C)C)[C@H]2O)[C@@H](CCOc2ccccc2)C[C@@H](C)C(=O)/C=C/C(C)=C/[C@@H]1COC1O[C@H](C)[C@@H](O)[C@@H](OC)[C@H]1OC,28 strains,≥64 µg/mL
COc1cccc2c1n([O-])c1cccc(OC)c1[n+]2=O,5 strains,32 µg/mL
CC(C)N=C(N)/N=C(\N)NOCCCOc1cc(Cl)c(Cl)cc1Cl,31 strains,32 µg/mL
CCCCN(CCCC)C[C@H](O)c1cc2c(Cl)cc(Cl)cc2c2cc(C(F)(F)F)ccc12,24 clinical isolates,16 µg/mL
Cc1c(F)c(N2CCNC(C)C2)cc2c1c(=O)c(C(=O)O)cn2C1CC1,53 strains,12.5 µg/mL
C[C@@H]1CN(c2c(F)c(N)c3c(=O)c(C(=O)O)cn(C4CC4)c3c2F)C[C@H](C)N1,18 strains,12.5 µg/mL
O=C(NCCCl)N1CCC(CN=c2cc3n(-c4ccc(Cl)cc4)c4ccccc4nc-3cc2Nc2ccc(Cl)cc2)CC1,5 strains,2 µg/mL
CC1COc2c(N3CCN(C)CC3)c(F)cc3c(=O)c(C(=O)O)cn1c23,18 strains,50 µg/mL
CC1COc2c(C3(N)CC3)c(F)cc3c(=O)c(C(=O)O)cn1c23,53 strains,100 µg/mL
Cc1c(F)c(N2CCNC(C)C2)cc2c1c(=O)c(C(=O)O)cn2C1CC1,,12.5 µg/mL
O=C(O)c1cn(C2CCCC2)c2cc(NC3CCCC3)c([N+](=O)[O-])cc2c1=O,,>200 µM
CCCN(CCC)CC[C@H]1C[C@@H](C)C(=O)/C=C/C(C)=C/[C@H](COC2O[C@H](C)[C@@H](O)[C@@H](OC)[C@H]2OC)[C@@H](CC)OC(=O)C[C@@H](O)[C@H](C)[C@H]1O[C@@H]1O[C@H](C)[C@H](O)[C@H](N(C)C)[C@H]1O,28 strains,≥64 µg/mL
CC[C@H]1OC(=O)[C@H](C)[C@@H](O[C@H]2C[C@@](C)(OC)[C@@H](O)[C@H](C)O2)[C@H](C)[C@@H](O[C@@H]2O[C@H](C)C[C@H](N(C)C)[C@H]2O)[C@](C)(O)C[C@@H](C)CN(C)[C@H](C)[C@@H](O)[C@]1(C)O,25 isolates,>8 µg/mL
CC[C@H]1OC(=O)[C@H](C)[C@@H](O[C@H]2C[C@@](C)(OC)[C@@H](O)[C@H](C)O2)[C@H](C)[C@@H](O[C@@H]2O[C@H](C)C[C@H](N(C)C)[C@H]2O)[C@](C)(O)C[C@@H](C)C(=O)[C@H](C)[C@@H](O)[C@]1(C)O,28 strains,≥64 µg/mL
O=C(O)c1cn(CCF)c2cc(NCCF)c([N+](=O)[O-])cc2c1=O,,100 µM
O[C@@H](c1cc2ccc(C(F)(F)F)cc2c2cc(C(F)(F)F)ccc12)[C@H]1CCCCN1,24 clinical isolates,4 µg/mL
CN1CCN(CCCN=c2cc3n(-c4ccc(Cl)cc4)c4ccccc4nc-3cc2Nc2ccccc2)CC1,10 strains (HIV+),0.87 µg/mL
CO[C@H]1/C=C/O[C@@]2(C)Oc3c(C)c(O)c4c(O)c(c5c(c4c3C2=O)NC2(CCN(CC(C)C)CC2)N=5)=NC(=O)/C(C)=C\C=C\[C@H](C)[C@H](O)[C@@H](C)[C@@H](O)[C@@H](C)[C@H](OC(C)=O)[C@@H]1C,211 strains,1.25 µg/mL
NCC[C@H](O)C(=O)N[C@@H]1C[C@H](N)[C@@H](O[C@H]2O[C@H](CN)[C@@H](O)[C@H](O)[C@H]2O)[C@H](O)[C@H]1O[C@H]1O[C@H](CO)[C@@H](O)[C@H](N)[C@H]1O,25 isolates,>64 µg/mL
CC(=O)NC[C@H]1CN(c2ccc(N3CCN(Cc4ccc([N+](=O)[O-])s4)CC3)c(F)c2)C(=O)O1,31 isolates,0.5 µg/mL
N[C@@H]1CN(c2c(F)cc3c(=O)c(C(=O)O)cn([C@@H]4C[C@@H]4F)c3c2Cl)CC12CC2,24 strains,8 µg/mL
NC1CCN(c2c(F)cc3c(=O)c(C(=O)O)cn(C4CC4)c3c2Cl)C1,25 isolates,>8 µg/mL
O=C(O)c1cn(C2CCC2)c2cc(NC3CCC3)c([N+](=O)[O-])cc2c1=O,,>200 µM
CC[C@H]1OC(=O)[C@H](C)[C@@H](O[C@H]2C[C@@](C)(OC)[C@@H](O)[C@H](C)O2)[C@H](C)[C@@H](O[C@@H]2O[C@H](C)C[C@H](N(C)C)[C@H]2O)[C@](C)(OC)C[C@@H](C)C(=O)[C@H](C)[C@@H](O)[C@]1(C)O,28 strains,8 µg/mL
CC1COc2c(N3CCN(C)CC3)c(F)cc3c(=O)c(C(=O)O)cn1c23,89 isolates,>16 µg/mL
CCCCN(CCCC)C[C@@H](O)c1cc2c(Cl)cc(Cl)cc2c2cc(C(F)(F)F)ccc12,24 clinical isolates,8 µg/mL
C[C@@H]1CN(c2c(F)c(N)c3c(=O)c(C(=O)O)cn(C4CC4)c3c2F)C[C@H](C)N1,53 strains,6.25 µg/mL

The last 5 rows once more:

O=C(O)c1cn(C2CCC2)c2cc(NC3CCC3)c([N+](=O)[O-])cc2c1=O ; result: >200 µM
CC[C@H]1OC(=O)[C@H](C)[C@@H](O[C@H]2C[C@@](C)(OC)[C@@H](O)[C@H](C)O2)[C@H](C)[C@@H](O[C@@H]2O[C@H](C)C[C@H](N(C)C)[C@H]2O)[C@](C)(OC)C[C@@H](C)C(=O)[C@H](C)[C@@H](O)[C@]1(C)O ; strain or isolate: 28 strains ; result: 8 µg/mL
CC1COc2c(N3CCN(C)CC3)c(F)cc3c(=O)c(C(=O)O)cn1c23 ; strain or isolate: 89 isolates ; result: >16 µg/mL
CCCCN(CCCC)C[C@@H](O)c1cc2c(Cl)cc(Cl)cc2c2cc(C(F)(F)F)ccc12 ; strain or isolate: 24 clinical isolates ; result: 8 µg/mL
C[C@@H]1CN(c2c(F)c(N)c3c(=O)c(C(=O)O)cn(C4CC4)c3c2F)C[C@H](C)N1 ; strain or isolate: 53 strains ; result: 6.25 µg/mL